# Assay results taken from PMC2771899, “Augmentation of Reverse Transcription by Integrase through an Interaction with Host Factor, SIP1/Gemin2 Is Critical for HIV-1 Infection” (PLoS ONE, 2009).
# Test system: endogenous SIP1
# Experiment: Immunoprecipitation of IN-V5 with endogenous SIP1
# Details: IN-V5 expressed in 293T cells; anti-V5 immunoprecipitation, anti-SIP1 Western blot; 48 h; 1.0 µg plasmid (2.5 µg for Y15A, K186Q, delta-KRK, LL241,242AA)
row,Substance,Binding to endogenous SIP1 in 293T cells
1,IN1–55: NH2-terminal domain of IN,much weaker affinity compared to the C-terminal domain
2,IN51–212: central core domain of IN,much weaker affinity compared to the C-terminal domain
3,IN51–288: central core domain plus C-terminal domain of IN,significantly enhanced binding with SIP1
4,IN-Cter: COOH-terminal domain of IN (201–288),bound to SIP1 efficiently
